PubChem BioAssay AID624099, ICCB-Longwood, 2012

Test: 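Human genes that papillomavirus E2 requires to repress the HPV18 LCR promoter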 (primary screen)
System: human C33A cervical carcinoma cells (HPV-negative) stably expressing BPV1 E2 and an HPV18 LCR luciferase reporter
Knock-down reagent: siRNA pool against human genes, 40 nM
Timing: 72 h
Read-out: 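Per-well luciferase luminescence, z-scored on each plate against the plate mean and SD with control wells left out, then averaged across three replicate plates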
Scale: mean z-score and z-score: higher = stronger reporter signal, weaker E2 silencing
Hit rule: 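Mean z ≥ 2 together with z ≥ 2 in two or more of the three replicates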
In all, the deposit lists about 21,000 reagents; below is a part drawn at random. Over the whole deposit, 497 (2.4%) got an active call. 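Higher z means weaker E2 silencing; only reporter increases were scored, and knock-downs that hurt cell survival may mask genuine repressor factors.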 Entries without a mark were called inactive. The numbers tell different reagents against one gene apart.

With HHIPL2 (HHIP like 2), what does the deposit list?
mean z-score: 0.07; z-score, replicate A: 0.21; z-score, replicate B: 0.13; z-score, replicate C: -0.11

For NBPF10 (NBPF member 10), how do the results read?
mean z-score: -0.08; z-score, replicate A: 0; z-score, replicate B: -0.15; z-score, replicate C: -0.07

With TBC1D10A (TBC1 domain family member 10A), how do the results read?
mean z-score: -0.29; z-score, replicate A: -0.6; z-score, replicate B: -0.16; z-score, replicate C: -0.1

For ST13 (ST13 Hsp70 interacting protein), how do the results read?
mean z-score: 0.18; z-score, replicate A: 0.28; z-score, replicate B: 0.12; z-score, replicate C: 0.15

What did the screen give for VAT1 (vesicle amine transport 1)?
mean z-score: 0.69; z-score, replicate A: 0.6; z-score, replicate B: 0.71; z-score, replicate C: 0.75

For MYOCD (myocardin), what does the deposit list?
mean z-score: -0.24; z-score, replicate A: -0.19; z-score, replicate B: -0.46; z-score, replicate C: -0.06

For GOLPH3L (golgi phosphoprotein 3 like), how do the results read?
mean z-score: -0.52; z-score, replicate A: 0.51; z-score, replicate B: -0.26; z-score, replicate C: -1.82

Which result is listed for RFTN1 (raftlin, lipid raft linker 1)?
mean z-score: -1.7; z-score, replicate A: -1.62; z-score, replicate B: -1.83; z-score, replicate C: -1.64

How did the screen score FBXL19 (F-box and leucine rich repeat protein 19)?
mean z-score: -1.58; z-score, replicate A: -1.67; z-score, replicate B: -1.59; z-score, replicate C: -1.49

How did the screen score LINC03033 (long independently transcribed non-coding RNA 3033) #1?
mean z-score: 0.46; z-score, replicate A: 0.78; z-score, replicate B: 0.39; z-score, replicate C: 0.22

With LINC03033 (long independently transcribed non-coding RNA 3033) #2, what does the deposit list?
mean z-score: 0.47; z-score, replicate A: 0.63; z-score, replicate B: 0.34; z-score, replicate C: 0.44

With MCHR2 (melanin concentrating hormone receptor 2), what does the deposit list?
mean z-score: 0.86; z-score, replicate A: 0.92; z-score, replicate B: 0.87; z-score, replicate C: 0.8

For SLC25A4, what does the deposit list?
mean z-score: -0.48; z-score, replicate A: -0.54; z-score, replicate B: -0.64; z-score, replicate C: -0.27

For YARS1 (tyrosyl-tRNA synthetase 1), what was measured?
mean z-score: 0.27; z-score, replicate A: 0.34; z-score, replicate B: 0.4; z-score, replicate C: 0.08

Look-ups from the list.
MYOCD (myocardin), z-score, replicate C: -0.06
For “z-score, replicate C”, SLC25A4 shows -0.27
GOLPH3L (golgi phosphoprotein 3 like), mean z-score → -0.52
Under “mean z-score”, MCHR2 (melanin concentrating hormone receptor 2) is entered as 0.86

Further reagents follow.
What is on record for LDLRAD2 (low density lipoprotein receptor class A domain containing 2)?
mean z-score: 0.78; z-score, replicate A: 0.35; z-score, replicate B: 1.26; z-score, replicate C: 0.74

With LOC158796 (retired record), what was measured?
mean z-score: -0.65; z-score, replicate A: -0.89; z-score, replicate B: -0.48; z-score, replicate C: -0.56

What is on record for ARHGAP12 (Rho GTPase activating protein 12)?
mean z-score: -0.46; z-score, replicate A: -0.27; z-score, replicate B: -0.52; z-score, replicate C: -0.61

With NRSN2 (neurensin 2), what was measured?
mean z-score: 0.38; z-score, replicate A: 0.47; z-score, replicate B: 0.18; z-score, replicate C: 0.49

How did the screen score G0S2 (G0/G1 switch 2)?
mean z-score: 1.69; z-score, replicate A: 1.79; z-score, replicate B: 1.88; z-score, replicate C: 1.41

What did the screen give for MRPL46 (mitochondrial ribosomal protein L46)?
mean z-score: -0.25; z-score, replicate A: 0.04; z-score, replicate B: -0.35; z-score, replicate C: -0.44

With TATDN3 (TatD DNase domain containing 3), what was measured?
mean z-score: 0.72; z-score, replicate A: 0.78; z-score, replicate B: 0.65; z-score, replicate C: 0.73

How did the screen score DCHS2 (dachsous cadherin-related 2)?
mean z-score: -0.58; z-score, replicate A: -0.51; z-score, replicate B: -0.89; z-score, replicate C: -0.32

What is on record for SEC24D (SEC24 homolog D, COPII component)?
mean z-score: -0.31; z-score, replicate A: 0.06; z-score, replicate B: -0.67; z-score, replicate C: -0.32

Which result is listed for LCT (lactase)?
mean z-score: -1.36; z-score, replicate A: -1.12; z-score, replicate B: -0.98; z-score, replicate C: -1.98

With WARS1 (tryptophanyl-tRNA synthetase 1), how do the results read?
mean z-score: 0.84; z-score, replicate A: 0.64; z-score, replicate B: 1.11; z-score, replicate C: 0.77

For HDGF (heparin binding growth factor), what was measured?
mean z-score: -1.8; z-score, replicate A: -2.01; z-score, replicate B: -1.73; z-score, replicate C: -1.66

With C1QTNF12 (C1q and TNF related 12), how do the results read?
mean z-score: 0.77; z-score, replicate A: 1.14; z-score, replicate B: 0.1; z-score, replicate C: 1.06
